Anti-infective test results gathered from many reports (values: NIAID ChemDB through PubChem).

Common to all: tests in culture; organism: Candida albicans; endpoint: EC50

ECn: concentration that inhibits the pathogen or its effect by n%.

structure	strain or isolate	result
CC(=O)N[C@H]1[C@@H](O[C@@H]2O[C@H](C[C@@H](O)[C@H]3O[C@@H](n4ccc(=O)[nH]c4=O)[C@H](O)[C@@H]3O)[C@H](O)[C@H](O)[C@H]2NC(=O)/C=C/CC(C)C)O[C@H](CO)[C@@H](O)[C@@H]1O	MY1055	>20 µg/mL
C1CCC(C[C@H]2CN=C3N2C[C@H](C2CCCCC2)N3CCC23CC4CC(CC(C4)C2)C3)CC1	ATCC 10231	9.3 µg/mL
O=C(O)c1ccccc1	PYCC 3436	0.1 µM
CCN1C2=NC[C@H](Cc3ccccc3)N2C[C@@H]1CC1CCCCC1	ATCC 10231	>64 µg/mL
C[C@H]1OO[C@@H](CC(=O)OC2C3CC4CC(C3)CC2C4)[C@H]2O[C@H]21		125–250 µM
CC1(C)C[C@H](N)[C@H](C(=O)O)C1		256 µg/mL
CC(C)=CCC/C(C)=C/CCC(C)=CCCC[n+]1cccc(C)c1.Cc1ccc(S(=O)(=O)[O-])cc1	CCH442	0.61 µM
Clc1ccc([Se][Se]c2ccc(Cl)cc2)cc1		2–10 µM
CCC(C)CC(C)CCCCCCCCC(=O)N[C@H]1C[C@@H](O)[C@@H](OCCN)NC(=O)[C@@H]2C[C@@H](O)CN2C(=O)[C@H]([C@H](O)CCN)NC(=O)[C@H]([C@H](O)[C@@H](O)c2ccc(O)cc2)NC(=O)[C@@H]2C[C@@H](O)CN2C(=O)[C@H]([C@@H](C)O)NC1=O	MY1055	20 µg/mL
C[C@H]1C=C[C@@H](C23CC4CC(CC(C4)C2)C3)OO1		31–63 µM
CO[C@H]1O[C@@H]2O[C@@]3(C)CC[C@H]4[C@H](C)CC[C@@H]([C@H]1C)[C@@]24OO3	ATCC 90028	>50 µg/mL
C1CCC(C[C@@H]2CN=C3N2C[C@@H](C2CCCCC2)N3CCC23CC4CC(CC(C4)C2)C3)CC1	ATCC 10231	9.1 µg/mL
CC(=O)OC1C=COC=C2CC34SSC5(CC6=COC=CC(OC(C)=O)C6N5C3=O)C(=O)N4C21	E83	10 µg/mL
C[C@H]1[C@@H](OC2CCC(O)CC2)O[C@@H]2O[C@]3(C)CC[C@H]4[C@H](C)CC[C@@H]1C24OO3	ATCC 90028	>50 µg/mL
CC(C)=CCC/C(C)=C/CC/C(C)=C/CCCOS(=O)(=O)c1ccc(C)cc1	CCH442	>20 µM
FC(F)(F)c1cccc([Se][Se]c2cccc(C(F)(F)F)c2)c1		2–10 µM
C1C2CC3CC1CC(C2)C3[C@H]1OOC[C@@H]2O[C@@H]21		31–63 µM
C1CCC(C[C@H]2CN3C(=NC[C@H]3CC3CCCCC3)N2CCC23CC4CC(CC(C4)C2)C3)CC1	ATCC 10231	2.9 µg/mL
C[C@@H]1CC[C@@]2(OC1)O[C@H]1[C@@H](O)[C@H]3[C@@H]4CC[C@H]5C[C@@H](O[C@@H]6O[C@H](CO)[C@H](O[C@@H]7O[C@H](CO)[C@@H](O)[C@H](O[C@@H]8OC[C@@H](O)[C@H](O)[C@H]8O)[C@H]7O[C@@H]7O[C@H](CO)[C@H](O)[C@H](O[C@@H]8O[C@H](CO)[C@@H](O)[C@H](O)[C@H]8O)[C@H]7O)[C@H](O)[C@H]6O)[C@H](O)C[C@]5(C)[C@H]4CC[C@]3(C)[C@H]1[C@@H]2C	MY1055	5 µg/mL
C[C@H]1[C@@H](Oc2ccc(S)cc2)O[C@@H]2O[C@]3(C)CC[C@H]4[C@H](C)CC[C@@H]1C24OO3	ATCC 90028	>50 µg/mL
CC/C=C/[C@H](CC)C/C(=C/[C@@]1(CC)C[C@H](CC)[C@H](CC(=O)O)OO1)CC		3 µg/mL
CC(C)CCCC(C)CCCC(C)CCCC[n+]1ccccc1.Cc1ccc(S(=O)(=O)[O-])cc1	CCH442	0.6 µM
N[C@H]1C=CCO[C@H]1C(=O)O		64 µg/mL
CC(C)=CCC/C(C)=C/CCC(C)=CCCC[n+]1ccc(N(C)C)cc1.O=C([O-])C(F)(F)F	CCH442	0.09 µM
C=C(CC[C@@H](C)[C@H]1C[C@@H](O)[C@@]2(C(=O)O)C3=C(CC[C@]12C)[C@@]1(C)CC[C@H](O[C@@H]2O[C@@H](CO)[C@H](OC)[C@@H](O)[C@@H]2O)C(=C)[C@@H]1CC3)C(C)C	MY1055	>40 µg/mL
O=C(O)CN1C(=O)/C(=C/c2ccc(OCc3ccccc3)c(OCc3ccccc3)c2)SC1=S	G418-sensitive	4 µM
Oc1cc(Cc2cc(O)c(O)c(Br)c2Br)c(Br)c(Br)c1O	ATCC 10231	25 µg/mL
C=C1[C@@H](OCCO)O[C@@H]2O[C@]3(C)CC[C@H]4[C@H](C)CC[C@@H]1C24OO3	ATCC 90028	>50 µg/mL
C1=C[C@H](C2C3CC4CC(C3)CC2C4)OO[C@@H]1C1C2CC3CC(C2)CC1C3		>1000 µM
CCCCCSc1nc2ccc(N)cc2s1	IEM 49/64	<80 µM
CCCCCCC[C@@H]1OO[C@H](CCCCCCC)[C@@H]2O[C@@H]21		500–1000 µM
CC(=O)O[C@@H]1C[C@@]23C(=O)OC[C@](C)([C@@H]2CC[C@H]2C3=CC[C@@]3(C)[C@H](C(=O)O)[C@@](C)([C@H](C)C(C)C)CC[C@]23C)[C@H]1O[C@@H]1O[C@H](CO)[C@@H](O)[C@H](O)[C@H]1O	MY1055	>20 µg/mL
Cc1ccc(S(=O)(=O)[O-])cc1.c1cc[nH+]cc1	CCH442	>200 µM
C=C1C[C@H](C(=O)O)[C@@H](N)C1		128 µg/mL
CC(N1CCN(c2ccc(-n3cnnn3)cc2)C1=O)[C@](O)(Cn1cncn1)c1ccc(F)cc1F	Clinical isolates	<2 µg/mL
CC(C)(C)C1CCC(CN2C3=NC[C@@H](C4CCCCC4)N3C[C@H]2C2CCCCC2)CC1	ATCC 10231	34.2 µg/mL
N[C@H]1CCN[C@H]1C(=O)O		>256 µg/mL

A second listing of 4 rows from above:

structure	strain or isolate	result
CC(N1CCN(c2ccc(-n3cnnn3)cc2)C1=O)[C@](O)(Cn1cncn1)c1ccc(F)cc1F	Clinical isolates	<2 µg/mL
C1CCC(C[C@@H]2CN=C3N2C[C@@H](C2CCCCC2)N3CCC23CC4CC(CC(C4)C2)C3)CC1	ATCC 10231	9.1 µg/mL
C1C2CC3CC1CC(C2)C3[C@H]1OOC[C@@H]2O[C@@H]21		31–63 µM
CCCCCSc1nc2ccc(N)cc2s1	IEM 49/64	<80 µM

Two numbers with a dash give a range or band. An empty or dashed field is not shown. Rows are shuffled and stem from different studies.